# From article PMC4366854, “Molecular origins of synaptotagmin 1 activities on vesicle docking and fusion pore opening” (Scientific Reports, 2015)
# Protein sequences, listed by entry. Tags and fused reporters are not part of them. Chains listed by the source or under a name are the forms on record and can include a tag or linker. Residues count along the entry.
# UniProt P63045, 1-96, chain 1 of 3: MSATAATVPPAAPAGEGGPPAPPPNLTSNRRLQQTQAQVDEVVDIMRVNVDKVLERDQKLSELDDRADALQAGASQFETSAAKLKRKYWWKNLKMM
# ternary SNARE complex of GST-tagged soluble VAMP2 (1-96), syntaxin 1A (191-266) and His-tagged SNAP-25, UniProt P32851, 191-266, chain 2 of 3: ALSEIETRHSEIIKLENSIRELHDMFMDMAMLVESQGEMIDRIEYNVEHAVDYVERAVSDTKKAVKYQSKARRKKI
# ternary SNARE complex of GST-tagged soluble VAMP2 (1-96), syntaxin 1A (191-266) and His-tagged SNAP-25, UniProt P60881, whole entry C85A/C88A/C90A/C92A, chain 3 of 3: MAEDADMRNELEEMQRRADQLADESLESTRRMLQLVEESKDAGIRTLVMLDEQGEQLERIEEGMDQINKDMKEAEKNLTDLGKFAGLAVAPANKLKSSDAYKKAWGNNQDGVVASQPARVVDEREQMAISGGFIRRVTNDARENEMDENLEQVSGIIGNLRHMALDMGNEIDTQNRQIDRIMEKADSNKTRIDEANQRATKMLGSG
# B1: Syt1 EEE (Lys326, Lys327, Lys331 to Glu) (domain or fragment, UniProt P21707 50-421, looked up)
# chain: LHKIPLPPWALIAIAIVAVLLVVTAAFAVAKKSLFKKKNKKKGKEKGGKNAINMKDVKDLGKTMKDQALKDDDAETGLTDGEEKEEPKEEEKLGKLQYSLDYDFQNNQLLVGIIQAAELPALDMGGTSDPYVKVFLLPDKKKKFETKVHRKTLNPVFNEQFTFKVPYSELGGKTLVMAVYDFDRFSKHDIIGEFKVPMNTVDFGHVTEEWRDLQSAEKEEQEKLGDICFSLRYVPTAGKLTVVILEAKNLKKMDVGGLSDPYVKIHLMQNGKRLKKEETTIEKNTLNPYYNESFSFEVPFEQIQKVQVVVTVLDYDKIGKNDAIGKVFVGYNSTGAELRHWSDMLANPRRPIAQWHTLQVEEEVDAMLAVKK
# notes: synaptotagmin 1 (Syt1), amino acids 50-421; polybasic region mutant of m1; The methods print L326/327/331E; also called Syt1 EEE (L326/327/331E); source: E. coli BL21 (DE3), purified
# Biological target: ternary SNARE complex of GST-tagged soluble VAMP2 (1-96), syntaxin 1A (191-266) and His-tagged SNAP-25 (rat, UniProt P63045 1-96; P32851 191-266; P60881 1-206, C85A | C88A | C90A | C92A)
# Assay: pull-down; GST pull-down: ternary SNARE complex (GST-VAMP2 1-96 / syntaxin 1A 191-266 / His-SNAP-25) held on glutathione-agarose beads; wild-type Syt1 or mutants added in cleavage buffer (50 mM Tris-HCl pH 8.0, 150 mM NaCl, 0.8% OG) with 500 uM Ca2+, 4 °C, 1 h; SDS-PAGE, Coomassie blue; wild type also tested with BSA, 200 uM IP3 or without Ca2+
# Settings: both partners purified
binder,measurement,value
B1,binding result,binds
